## Sequence variants of PSTVd loop 15 after infection

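Three N. benthamiana plants were inoculated with the whole mutant pool. Progeny were sequenced from the inoculated region (day 5), the margin of the inoculated leaf (day 10) and systemic leaves (day 12).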

PSTVd intermediate strain, loop 15: wild type GGAAACCGCUACUAC, pool pattern GGAAACCGNNNNNNC; upper and lower strand joined, each 5' to 3', the first 7 letters being the upper strand, closing pairs included.

Values are reads per thousand in the sample; higher means more abundant, 0 means not found. Each value is the mean of three plants. "Pool" is the share in the plasmid pool used as inoculum, on the same scale. The inoculated region was read from the minus strand, the other sites from the plus strand. Samples held 43,870 to 66,106 reads, so the smallest values rest on one or two reads.

sequence,pool,inoculated region,leaf margin,systemic leaves
GGAAACCGUCAGCAC,0.208,0.344,0.118,0.0638
GGAAACCGAACCUAC,0.160,0.339,0.0747,0.0161
GGAAACCGAAUAUAC,0.272,0.314,0.148,0.0161
GGAAACCGAUACGGC,0.192,0.0686,0.00539,0
GGAAACCGCUUGGCC,0.144,0.106,0,0
GGAAACCGCAUUAAC,0.144,0.104,0.0187,0
GGAAACCGGAGGUGC,0.176,0.0814,0.0121,0
GGAAACCGCUUAUUC,0.304,0.494,0.0798,0.436
GGAAACCGGUACGUC,0.240,0.131,0.0121,0.00537
GGAAACCGCUGUUAC,0.272,0.295,0.131,0.0161
GGAAACCGUGCGAAC,0.224,0.320,0.959,0.0556
GGAAACCGCGGAAUC,0.176,0.119,0.00742,0
GGAAACCGAGUCGCC,0.208,0.0794,0,0
GGAAACCGGCACUGC,0.288,0.0848,0.0134,0
GGAAACCGGCGUAAC,0.192,0.0677,0.0121,0
GGAAACCGUUGGUGC,0.320,0.376,0.121,0.0714
GGAAACCGGAUAGCC,0.256,0.131,0.0134,0.00537
GGAAACCGGCACGCC,0.192,0.0941,0.00668,0
GGAAACCGCUUUGGC,0.304,0.0930,0.00668,0
GGAAACCGUGCACAC,0.368,0.114,0.0134,0
GGAAACCGCUCGAGC,0.352,0.0621,0.0121,0
GGAAACCGUCUCGUC,0.304,0.0972,0.0316,0.00537
GGAAACCGGGGGUAC,0.208,0.290,0.117,0.0483
GGAAACCGAGUGGGC,0.224,0.222,0.00539,0
GGAAACCGCUUUGAC,0.208,0.0909,0.0121,0
GGAAACCGUUAAAUC,0.240,0.331,0.137,0.0995
GGAAACCGGAACUCC,0.224,0.0885,0.00742,0.0104
GGAAACCGGACCUUC,0.192,0.0839,0.00668,0
GGAAACCGUUGGUUC,0.256,0.284,0.0987,0.0486
GGAAACCGAUUAUUC,0.240,0.421,0.0993,0.0158
GGAAACCGACUGUCC,0.480,0.117,0,0
GGAAACCGCUCAGUC,0.288,0.0822,0.0195,0.00537
GGAAACCGAAGUAAC,0.256,0.152,0.0108,0.0107
GGAAACCGCGACUGC,0.160,0.300,0.0752,0.0970
GGAAACCGCGCCGUC,0.192,0.263,0.00742,0
GGAAACCGUGUGCCC,0.192,0.0904,0.00668,0
GGAAACCGACGAAUC,0.256,0.0878,0.00668,0
GGAAACCGUUAAGAC,0.224,0.280,0.113,0.00537
GGAAACCGAAUGAGC,0.288,0.136,0.00539,0.00537
GGAAACCGGUCUACC,0.304,0.0967,0.0187,0
GGAAACCGUAUCGUC,0.176,0.153,0.00668,0
GGAAACCGUACGAUC,0.176,0.194,0.0200,0
GGAAACCGAAGUUGC,0.160,0.0633,0.0187,0
GGAAACCGGACUUUC,0.160,0.0742,0.0108,0
GGAAACCGGCUCCUC,0.224,0.107,0,0
GGAAACCGCUCCACC,0.304,0.0706,0.00668,0
GGAAACCGACUUGCC,0.176,0.110,0.0134,0
GGAAACCGUCUUAGC,0.272,0.109,0.0134,0
GGAAACCGUCUUGUC,0.288,0.120,0.00668,0
GGAAACCGCGGCUAC,0.336,0.531,0.0967,0.0161
GGAAACCGAAGAAAC,0.240,0.140,0,0
GGAAACCGACGGGGC,0.208,0.0794,0,0
GGAAACCGCACACCC,0.272,0.0920,0.00742,0
GGAAACCGGUGGGUC,0.240,0.108,0.0241,0
GGAAACCGAGGCAAC,0.176,0.0859,0.0262,0
GGAAACCGAACGUAC,0.272,0.315,0.138,0.0487
GGAAACCGUUAGCGC,0.208,0.329,0.186,0.0322
GGAAACCGCAUAACC,0.160,0.196,0.0121,0.0161
GGAAACCGUGGAGCC,0.192,0.0641,0.0121,0
GGAAACCGGCAAACC,0.288,0.107,0.00539,0
GGAAACCGGCGCAAC,0.240,0.111,0,0.00760

The opening 4 entries, copied out:

sequence	pool	inoculated region	leaf margin	systemic leaves
GGAAACCGUCAGCAC	0.208	0.344	0.118	0.0638
GGAAACCGAACCUAC	0.160	0.339	0.0747	0.0161
GGAAACCGAAUAUAC	0.272	0.314	0.148	0.0161
GGAAACCGAUACGGC	0.192	0.0686	0.00539	0

The authors trace changes outside the varied positions to PCR and sequencing errors or to mutation in the plant; presence does not show that a variant is infectious alone. For reference, wild type rose from 33.9 per thousand in the pool to 202, 200, 159 (inoculated region), 724, 746, 710 (leaf margin) and 856, 883, 880 (systemic leaves).

From the data files of Wu et al. 2024, doi:10.1371/journal.ppat.1012142.